Results published in article PMC6328932, “Procaspase activating compound 1 controls tetracycline repressor-regulated gene expression system” (Bioscience Reports, 2019).
Construct, isoform or probe ends are uncertain for at least one entry. A negative result means that nothing was seen under these conditions.

Amino acid sequences for entries named in this document (tags omitted). A change or cut given only in a name is not applied to a line headed by its entry.
UniProt P04483: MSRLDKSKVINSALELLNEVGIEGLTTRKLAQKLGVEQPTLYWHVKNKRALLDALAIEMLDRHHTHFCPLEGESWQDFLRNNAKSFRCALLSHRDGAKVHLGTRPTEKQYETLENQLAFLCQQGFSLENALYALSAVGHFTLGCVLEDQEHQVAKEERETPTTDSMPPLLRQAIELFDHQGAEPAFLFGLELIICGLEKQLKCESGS

Biological target: TetR(B) (UniProt P04483)
Test: EMSA
Conditions: EMSA: 20 mM Tris-HCl pH 8.0, 50 mM NaCl, 1 mM MgCl2, 0.1 mM DTT, 15 min at room temperature, 8% PAGE in 90 mM Tris, 90 mM boric acid, 5 mM MgCl2, recombinant protein, label: none (ethidium bromide stain)

CCTAATTTTTGTTGACACTCTATCATTGATAGAGTTATTTTACCACTC (double strand) [tetO]
binding result (20 uM Dox + PAC-1 up to 2 mM, tetO stays free): no binding | binding result (20 uM Dox, 4 uM TetR, 0.5 uM tetO, complex completely disappears): no binding
